Here are results for one substance from patent US20160213003A1, “APPLICATION OF POLYOXOMETALATE IN PREPARATION OF DISINFECTANT FOR STERILIZING AND REMOVING FORMALDEHYDE” (NINGBO YUCHEN ENVIROCLEAN TECH CO., LTD., priority 2013, published 2016).

The data set can be described thus: Removal of formaldehyde from air in a sealed stainless steel box.

For the substance Potassium polytungstate [K3[PW12O40]], the “concentration of formaldehyde in the air” value is given as 10 ppm (time 0 hour (initial concentration), sealed box 0.7 m×0.7 m×0.7 m); 7.1 ppm (time 1 hour, initial 10 ppm, sealed box); 5.3 ppm (time 2 hour, initial 10 ppm, sealed box); 3.7 ppm (time 3 hour, initial 10 ppm, sealed box); 2.5 ppm (time 4 hour, initial 10 ppm, sealed box); 1.3 ppm (time 5 hour, initial 10 ppm, sealed box).
